# Assay results taken from PubChem BioAssay AID651644 (National Center for Advancing Translational Sciences (NCATS), 2012).
# Only a part is listed here, and it is no random draw. The source made the active and inactive calls. Calls come from the whole dose curve; as a rule, active = well fitted falling curve with a large enough effect; inconclusive = small, poorly fitted or top-dose-only effect; inactive = no such curve, though single readings can be large or run the other way.
# Assay: qHTS Assay for Inhibitors of the HIV-1 protein Vpr; note: nearly all actives have a fitted effect of over 50% in size
# Details: S. pombe RE007 Vpr strain, BacTiter-Glo ATP luminescence, 24 h; at 92.2 µM (top of the series) unless noted
# % is set by controls: 0 for no effect and ±100 for the full control effect.
row,SMILES,"activity change, negative = less growth"
1,COC(=O)C1(C)COP(=O)(Nc2ccccc2)OC1 (stereo unspecified),inactive: -13.4%
2,O=[N+]([O-])c1cccc(NC2=NCC(CBr)S2)c1 (stereo unspecified),inactive: 9.79%
3,O=C(O)CNc1ccc([As](=O)(O)O)cc1,inactive: 3.28%
4,CC(C)(C)C(=O)NC(Sc1ccncn1)C(Cl)(Cl)Cl (stereo unspecified),inactive: -21.3%
5,O=[N+]([O-])c1ncn(CCn2ncnc2[N+](=O)[O-])n1,inactive: 7.07%
6,O=C(Nc1cc([As](=O)(O)O)ccc1O)c1ccccc1,inactive: 10.6%
7,CCOC(=O)c1ccc(NP(C)(=O)Oc2ccc(Cl)cc2)cc1 (stereo unspecified),inactive: -22.5%
8,CP(=O)(OC12CC3CC(CC(C3)C1)C2)OC12CC3CC(CC(C3)C1)C2,inactive: 1.77%
9,Nc1ccc2c(ccc3cccnc32)n1.O=[N+]([O-])c1cc([N+](=O)[O-])c(O)c([N+](=O)[O-])c1,inactive: 5.74%
10,O=P1(N(CCCl)CCCl)OCCCS1 (stereo unspecified),inactive: -4.61%
11,CN(C)C(=O)OCCc1n(C)cc[n+]1C,inactive: -4.18%
12,CC(C)c1nc(Nc2ccccc2)n(P(=O)(N(C)C)N(C)C)n1,inactive: -10.2%
13,CC(C)=N/N=C(\N)N[N+](=O)[O-],inactive: 3.13%
14,CN(C)C(=O)c1c([N+](=O)[O-])cc([N+](=O)[O-])cc1[N+](=O)[O-],inactive: -26.1%
15,CC1CCN(C(=O)Oc2c(Cl)cc(Cl)c3cccnc23)CC1,inactive: -4.56%
16,c1cc(-c2nn[nH]n2)ccc1-c1nn[nH]n1,inactive: -13.7%
17,C[N+]1=C2C=CC=CC=C2SC12C([N+](=O)[O-])=CC([N+](=O)[O-])=C[C-]2[N+](=O)[O-] (stereo unspecified),inactive: -29.3%
18,COc1ccccc1OP(C)(=O)Nc1ccccc1Br (stereo unspecified),inactive: 18.5%
19,Nc1ccc([As](=O)(O)c2ccc(N)cc2)cc1,inactive: 14%
20,CC(C)(C)c1ccc(OP(C)(=O)O)cc1,inactive: 8.62%
21,CP(=O)(Nc1ccc(Cl)cc1)Oc1ccc(F)cc1 (stereo unspecified),inactive: 8.91%
22,CCN(/C(=N/P(=O)(N1CCOCC1)N1CCOCC1)N1CCOCC1)c1ccc(OC)cc1,inactive: -8.49%

row,SMILES,"activity change, negative = less growth"
1,O=C(OCCCN1CCCC1)C(O)(c1ccccc1)C1CCCCC1 (stereo unspecified),inactive: -1.58%
2,CC(=O)N1C2C3N(C(C)=O)C1C1N(C(C)=O)C(C(N1C(C)=O)N3C(C)=O)N2C(C)=O,inactive: 4.88%
3,O=[N+]([O-])c1cccc2n[nH]nc12,inactive: 10.1%
4,COc1ccccc1OP(C)(=O)Nc1c(C)n(C)n(-c2ccccc2)c1=O (stereo unspecified),inactive: -9.94%
5,CCc1ccc(OP(C)(=O)Nc2cccnc2)cc1 (stereo unspecified),inactive: -5.83%
6,CCc1nc2c(n1)c1c(non1O)c1c2no[n+]1[O-],inactive: -24.6%
7,CP(=O)(Oc1ccccc1)N1CCOC1=O (stereo unspecified),inactive: 6.8%
8,Cc1ccc(NP(=O)(Oc2ccccc2)Oc2ccccc2)nc1,inactive: -2.64%
9,COc1ccc(OP(C)(=O)Nc2ccc(Br)cc2)cc1 (stereo unspecified),inactive: 21.6%
10,COc1ccc(C2=NCC(CBr)S2)cc1 (stereo unspecified),inactive: -3.51%
11,CCN(CC)CC(O)COC(=O)C(O)(c1ccccc1)C1CCCCC1 (stereo unspecified),inactive: -2.48%
12,COc1ccccc1OP(C)(=O)Nc1ccc(C)cc1C (stereo unspecified),inactive: 31.5%
13,CP(=O)(Nc1ccccn1)Oc1ccccc1 (stereo unspecified),inactive: 21.3%
14,O=[N+]([O-])C1C(O)C(O)C([N+](=O)[O-])C(O)C1O (stereo unspecified),inactive: 0.478%
15,CCc1ccc(OP(C)(=O)O)cc1,inactive: -0.909%
16,Nc1cc(N)c2nonc2c1[N+](=O)[O-],inactive: -0.616%
17,Cc1c(NP(C)(=O)Oc2ccc(C(C)C)cc2)c(=O)n(-c2ccccc2)n1C (stereo unspecified),inactive: 2.44%
18,CC(C)CC(=O)NC(Sc1ccc(Cl)cc1)C(Cl)(Cl)Cl (stereo unspecified),inactive: -2.23%
19,O=C(NC(Sc1ccncn1)C(Cl)(Cl)Cl)c1ccccc1 (stereo unspecified),inactive: -12.5%
20,Oc1ccccc1CNc1ccccn1,inactive: 3.46%
21,Cc1ccc(OP(=O)(Nc2nccs2)Oc2ccc(C)cc2)cc1,inactive: 7.27%
22,COc1ccccc1OP(=O)(Nc1ccc(C)cn1)Oc1ccccc1OC,inactive: 8.92%

row,SMILES,"activity change, negative = less growth"
1,COc1ccc(OP(C)(=O)Nc2ccccn2)cc1 (stereo unspecified),inactive: -6.5%
2,CN1CCCC(OC(=O)C(c2ccccc2)c2ccccc2)C1 (stereo unspecified),inactive: -5.44%
3,CN(C)CCOC(=O)C(O)(c1ccccc1)C1CCCC1 (stereo unspecified),inactive: 1.9%
4,Clc1ccc(Cl)c(NC2=NCC(CBr)S2)c1 (stereo unspecified),inactive: 1.02%
5,NC(=O)c1cc([N+](=O)[O-])cc([N+](=O)[O-])c1N,inactive: -4.67%
6,Cc1ccc(N/C(=N/P(=O)(N2CCOCC2)N2CCOCC2)N2CCOCC2)cc1,inactive: -13.7%
7,COc1ccccc1OP(C)(=O)Nc1ccc(Br)cc1 (stereo unspecified),inactive: -25%
8,CCN(N=Nc1nonc1N)c1nonc1N,inactive: 7.73%
9,CP(=O)(Nc1ccc(Cl)cc1Cl)Oc1ccccc1 (stereo unspecified),inactive: 10.8%
10,CP(=O)(OCCOc1ccccc1)OCCOc1ccccc1,inactive: -12.3%
11,COc1ccccc1OP(C)(=O)Nc1ccc(C)c(C)c1 (stereo unspecified),inactive: -6.9%
12,Cc1ccc(NP(=O)(Oc2ccccc2F)Oc2ccccc2F)nc1,inactive: 6.62%
13,Cc1cc(SC(NC(=O)c2ccc(F)cc2)C(Cl)(Cl)Cl)ncn1 (stereo unspecified),inactive: -6.76%
14,CCOP(=O)(Nc1ccccc1)OCC,inactive: -15.7%
15,COc1ccc(OP(C)(=O)Nc2ccccc2Br)cc1 (stereo unspecified),inactive: -5.1%
16,CCCC1OP(N)(=O)OCC1CC (stereo unspecified),inactive: -13%
17,CC(=O)Nc1ccc([As](=O)(O)O)cc1,inactive: 0.993%
18,O=C(O)c1ccccc1[As](=O)(O)O,inactive: -3.61%
19,O=P(Nc1nc2ccc(Cl)cc2s1)(c1ccccc1)c1ccccc1,inactive: -1.24%
20,CN(C)P(=O)(N(C)C)n1c(Nc2ccccc2)nnc1-c1ccccc1,inactive: -24.8%
21,Cc1cc(C)cc(OP(C)(=O)Nc2cccc(C(F)(F)F)c2)c1 (stereo unspecified),inactive: -2.08%
22,CP(=O)(Nc1ccccc1)Oc1ccc(F)cc1 (stereo unspecified),inactive: 10%
